Measured values from patent US8722123B2, “Antimicrobial composition and use as food treatment” (priority 2008, dated 2014).
Marks after values point to notes of the source that are not given here.

Test system: E. coli O157:H7 on alfalfa seeds
Assay: E. coli O157:H7 inactivation on alfalfa seeds
Conditions: for E. coli O157:H7 counts, 0 min of exposure / E. coli O157:H7 counts, 1 min of exposure / E. coli O157:H7 counts, 2 min of exposure / E. coli O157:H7 counts, 5 min of exposure / E. coli O157:H7 counts, 60 min of exposure / E. coli O157:H7 counts, 10 min of exposure / E. coli O157:H7 counts, 20 min of exposure / E. coli O157:H7 counts, 30 min of exposure: 21° C.

[Ca+2].[O-]Cl.[O-]Cl [20,000 ppm, Ca(OCl)2, pH 11.4, calcium hypochlorite]
E. coli O157:H7 population reduction (seeds dried 4 h, treatment for up to 60 min): greater than 6 log CFU/g | E. coli O157:H7 counts, 0 min of exposure (seeds dried for 4 h): +^b (+, Below the minimum detection level by direct plating (<1.7 log CFU/ml), but positive by enrichment culture.) | E. coli O157:H7 counts, 1 min of exposure (seeds dried for 4 h): + (+, Below the minimum detection level by direct plating (<1.7 log CFU/ml), but positive by enrichment culture.) | E. coli O157:H7 counts, 2 min of exposure (seeds dried for 4 h): −^c | E. coli O157:H7 counts, 5 min of exposure (seeds dried for 4 h): + (+, Below the minimum detection level by direct plating (<1.7 log CFU/ml), but positive by enrichment culture.) | E. coli O157:H7 counts, 60 min of exposure (seeds dried for 4 h): + (+, Below the minimum detection level by direct plating (<1.7 log CFU/ml), but positive by enrichment culture.) | E. coli O157:H7 counts, 0 min of exposure (seeds dried for 24 h): + (+, Below the minimum detection level by direct plating (<1.7 log CFU/ml), but positive by enrichment culture.) | E. coli O157:H7 counts, 1 min of exposure (seeds dried for 24 h): − | E. coli O157:H7 counts, 2 min of exposure (seeds dried for 24 h): − | E. coli O157:H7 counts, 5 min of exposure (seeds dried for 24 h): − | E. coli O157:H7 counts, 10 min of exposure (seeds dried for 24 h): − | E. coli O157:H7 counts, 20 min of exposure (seeds dried for 24 h): − | E. coli O157:H7 counts, 30 min of exposure (seeds dried for 24 h): − | E. coli O157:H7 counts, 60 min of exposure (seeds dried for 24 h): + (+, Below the minimum detection level by direct plating (<1.7 log CFU/ml), but positive by enrichment culture.) | E. coli O157:H7 populations after treatment (seeds dried for 24 h, 5 min): levels only detectable by enrichment culture | E. coli O157:H7 counts, 0 min of exposure (seeds dried for 48 h): + (+, Below the minimum detection level by direct plating (<1.7 log CFU/ml), but positive by enrichment culture.) | E. coli O157:H7 counts, 1 min of exposure (seeds dried for 48 h): − | E. coli O157:H7 counts, 2 min of exposure (seeds dried for 48 h): + (+, Below the minimum detection level by direct plating (<1.7 log CFU/ml), but positive by enrichment culture.) | E. coli O157:H7 counts, 5 min of exposure (seeds dried for 48 h): − | E. coli O157:H7 counts, 10 min of exposure (seeds dried for 48 h): − | E. coli O157:H7 counts, 20 min of exposure (seeds dried for 48 h): − | E. coli O157:H7 counts, 30 min of exposure (seeds dried for 48 h): − | E. coli O157:H7 counts, 60 min of exposure (seeds dried for 48 h): − | E. coli O157:H7 counts, 0 min of exposure (seeds dried for 72 h): + (+, Below the minimum detection level by direct plating (<1.7 log CFU/ml), but positive by enrichment culture.) | E. coli O157:H7 counts, 1 min of exposure (seeds dried for 72 h): + (+, Below the minimum detection level by direct plating (<1.7 log CFU/ml), but positive by enrichment culture.) | E. coli O157:H7 counts, 2 min of exposure (seeds dried for 72 h): + (+, Below the minimum detection level by direct plating (<1.7 log CFU/ml), but positive by enrichment culture.) | E. coli O157:H7 counts, 5 min of exposure (seeds dried for 72 h): − | E. coli O157:H7 counts, 10 min of exposure (seeds dried for 72 h): + (+, Below the minimum detection level by direct plating (<1.7 log CFU/ml), but positive by enrichment culture.) | E. coli O157:H7 counts, 20 min of exposure (seeds dried for 72 h): + (+, Below the minimum detection level by direct plating (<1.7 log CFU/ml), but positive by enrichment culture.) | E. coli O157:H7 counts, 30 min of exposure (seeds dried for 72 h): − | E. coli O157:H7 counts, 60 min of exposure (seeds dried for 72 h): −
